Experimental data taken from ChEMBL document CHEMBL6120945, “Peptidomimetic Analogues Act as Effective Inhibitors against SARS-CoV-2 by Blocking the Function of Cathepsin L” (J Med Chem, 2024).

The chains behind the UniProt entries cited, without tags or fusion partners.
UniProt P25774, whole entry, looked up: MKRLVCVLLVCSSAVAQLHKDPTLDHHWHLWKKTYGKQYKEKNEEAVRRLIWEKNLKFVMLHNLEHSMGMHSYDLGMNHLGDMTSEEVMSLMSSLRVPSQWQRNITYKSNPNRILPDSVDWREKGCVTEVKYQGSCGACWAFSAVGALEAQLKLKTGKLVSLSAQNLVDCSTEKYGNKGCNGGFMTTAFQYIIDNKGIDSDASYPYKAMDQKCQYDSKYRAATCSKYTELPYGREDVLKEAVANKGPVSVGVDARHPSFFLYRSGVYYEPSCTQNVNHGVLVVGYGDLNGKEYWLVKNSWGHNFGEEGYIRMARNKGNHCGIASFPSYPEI

Tests used:
Homo sapiens = species: Homo sapiens; assay: Binding affinity to human recombinant Cathepsin L-like protease using Z-FR-AMC as substrate assessed as Kinact/Ki ratio preincubated for 30 mins followed by substrate addition and measured after 1 hr by Morrison equation based analysis; details: time 1.5 hrs
Cathepsin B = Cathepsin B (Homo sapiens, UniProt P07858); assay: Binding affinity to Cathepsin B (unknown origin) assessed as Kinact/Ki ratio by Morrison equation based analysis
[1] = molecular target: Cathepsin S (Homo sapiens) (UniProt P25774); assay: Binding affinity to Cathepsin S (unknown origin) assessed as Kinact/Ki ratio by Morrison equation based analysis
[2] = molecular target: T1, Cathepsin L2 (Homo sapiens) (UniProt O60911); assay: Binding affinity to Cathepsin V (unknown origin) assessed as Kinact/Ki ratio by Morrison equation based analysis
T1 sequence (whole entry): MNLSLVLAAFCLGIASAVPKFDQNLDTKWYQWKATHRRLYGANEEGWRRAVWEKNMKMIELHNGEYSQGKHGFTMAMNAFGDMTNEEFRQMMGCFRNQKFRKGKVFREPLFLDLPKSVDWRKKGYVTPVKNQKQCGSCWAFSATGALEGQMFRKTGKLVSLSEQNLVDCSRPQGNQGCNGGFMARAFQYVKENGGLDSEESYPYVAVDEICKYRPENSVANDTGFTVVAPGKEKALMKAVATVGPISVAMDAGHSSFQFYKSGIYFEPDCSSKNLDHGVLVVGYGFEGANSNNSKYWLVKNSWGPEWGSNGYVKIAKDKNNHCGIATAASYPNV

Q: How did the Ratio (Homo sapiens) turn out when `O=C(N[C@@H](Cc1ccc(F)cc1)C(=O)N[C@@H](Cc1ccccc1)C(=O)CCl)c1cccc2ccccc12` was run?
A: The Ratio was 6.83 10^6/s/M.

Q: What about the Ratio (Cathepsin B) of the same molecule?
A: The Ratio was 5.39 10^3/s/M.

Q: And the Ratio [1]?
A: The Ratio was 1.92 10^3/s/M.

Q: What about the Ratio [2] of the same molecule?
A: Its Ratio is 5.36 10^4/s/M.
